A mixed list of measured activities; the numbers were collected in NIAID ChemDB.

Common to all: cytotoxicity tests; cell line: CEM; read-out: CC50

CCn: concentration that lowers growth or viability of the cells by n%.

structure | result
CN(C)[C@@H]1C(=O)C(C(N)=O)=C(O)[C@@]2(O)C(=O)C3=C(O)c4c(O)ccc(Cl)c4[C@@](C)(O)C3C[C@@H]12 | >10 µg/mL
O=c1[nH]c(=O)n([C@H]2C[C@H](O)[C@@H](CO)O2)cc1C12B3B4B5B6B(B3B1B42)B1B5C61 | >100 µM
Nc1nc2c(ncn2[C@@H]2C[C@H](OCP(=O)(O)O)CC2(F)F)c(=O)[nH]1 | >100 µM
Cc1cn([C@H]2C=C[C@@H](COP3(=O)OCc4cc(CCC(=O)OCOC(=O)C(C)(C)C)ccc4O3)O2)c(=O)[nH]c1=O | 24 µM
O=C(Nc1ccccc1C(=O)N[C@@H](Cc1ccccc1)[C@H](O)[C@H](O)[C@H](Cc1ccccc1)NC(=O)c1ccccc1NC(=O)OCc1ccccn1)OCc1ccccn1 | >0.06 µM
C=CCOC(=O)CCCCCCC | 357 µM
S=C(S)N1CCOCC1 | 42 µM
Cc1cn([C@H]2C[C@H](N=[N+]=[N-])[C@@H](CN3C(=O)c4ccc([N+](=O)[O-])cc4C3=O)O2)c(=O)[nH]c1=O | >200 µM
CN=C1CN=C(c2ccc[nH]2)c2cc(Cl)ccc2N1 | 3.5 µg/mL
Cc1cc(SC2=C(O)C[C@](CCc3ccc(O)cc3)(C(C)C)OC2=O)c(C(C)(C)C)cc1N | 211 µM
Cc1cc(S(=O)(=O)Nc2n[nH]c(N)n2)c(SCc2nc(N)nc(N(C)C)n2)cc1Cl | >200 µM
CC(C)(C)OC(=O)N[C@@H](Cc1ccccc1)[C@H](O)CNC[C@@H](O)[C@@H](N)Cc1ccccc1 | >10 µM
Nc1ncnc2c1ncn2/C=C1/C[C@@H]1CO | 65 µM
Cc1cn([C@@H]2O[C@H](CO[Si](C)(C)C(C)(C)C)C3(OS(=O)(=O)C=C3N)[C@H]2O[Si](C)(C)C(C)(C)C)c(=O)n(CC(=O)N[C@@H](C)C(=O)OCc2ccccc2)c1=O | ≥250 µM
CC(C)(C)OC(=O)N[C@@H](Cc1ccccc1)[C@H](O)CNC[C@@H](O)[C@H](Cc1ccccc1)NC(=O)OC(C)(C)CNC=O | >10 µM
CO[C@H]1N([C@H]2C[C@H](F)[C@@H](CO)O2)C(=O)NC(=O)[C@]1(C)Cl | >800 µM
COc1nc(N)nc2c1ncn2/C=C1/C[C@@H]1CO | 98 µM
C=CCOC(=O)CCCCCCCCC | 263 µM
Cc1c(O)cccc1C(=O)N[C@@H](Cc1ccccc1)[C@@H](O)C[C@H](Cc1ccccc1)NC(=O)c1ccccc1NC(=O)OCc1ccccn1 | >0.03 µM
Cn1cc(C(=O)O)c(=O)c2cc(F)c(N3CC=C(c4ccccc4)CC3)c(C(F)(F)F)c21 | 3 µM
Cc1cc(S(=O)(=O)Nc2nc(N)nc(N3CCOCC3)n2)c(S)cc1Cl | >200 µM
CC(C)CN(C[C@@H](O)[C@H](Cc1ccccc1)NC(=O)OCc1ccccc1)S(=O)(=O)c1ccccc1 | 8 µM
C[C@H]1c2cccc(O)c2C(O)=C2C(=O)[C@]3(O)C(O)=C(C(N)=O)C(=O)[C@@H](N(C)C)[C@@H]3[C@@H](O)[C@@H]21 | >3.3 µg/mL
CC(=O)Oc1cc(S(=O)(=O)Nc2n[nH]c(Nc3ccc(C)cc3)n2)c(S)cc1Cl | >200 µM
O=C(Nc1ccccc1C(=O)N[C@@H](Cc1ccccc1)C[C@H](O)[C@H](Cc1ccccc1)NC(=O)OC1CCOC1)OCc1ccccn1 | >0.03 µM
O=C(NNC(=O)c1ccccc1O)c1ccccc1O | 0.1 µM
CCCC1(CCc2ccc(O)cc2)CC(O)=C(Sc2cc(C)c(OCCO)cc2C(C)(C)C)C(=O)O1 | 70 µM
Nc1ccn([C@@H]2O[C@H](CO)C[C@@H]2F)c(=O)n1 | 61.8 µg/mL
O=C(Nc1ccccc1O)c1ccccc1SSc1ccccc1C(=O)Nc1ccccc1O | 10 µM
COc1ccc2c(c1)N(C(=O)OC(C)C)[C@@H](CSC)C(=S)N2 | >58.8 µM
Cc1cn([C@@H]2O[C@H](CO[Si](C)(C)C(C)(C)C)C3(OS(=O)(=O)C=C3N)[C@H]2O[Si](C)(C)C(C)(C)C)c(=O)n(CCOC(=O)[C@@H](N)C(C)C)c1=O | 21 µM
COC(=O)[C@H](C)NP(=O)(OC[C@@H]1C=C[C@H](n2cc(C)c(=O)[nH]c2=O)O1)Oc1ccc(Br)cc1 | >10 µM
Cc1cc(S(=O)(=O)Nc2n[nH]c(N)n2)c(S)cc1Cl | >200 µM
Cc1cc(SC2=C(O)CC(CCc3ccc(N)cc3)(C(C)C)OC2=O)c(C(C)(C)C)cc1CO | >100 µM
COC(=O)[C@H](C)N[P@](=O)(OC[C@@H]1C=C[C@H](n2cc(C)c(=O)[nH]c2=O)O1)Oc1ccccc1C | >250 µM
CC(C)=CCN1Cc2cc(Cl)cc3[nH]c(=S)n(c23)C[C@@H]1C | >31.1 µM
Nc1nc(NC2CC2)c2ncn(/C=C3/C[C@@H]3CO)c2n1 | 70 µM
CC(C)(C)OC(=O)N[C@@H](Cc1ccccc1)[C@H](O)CNC[C@@H](O)[C@H](Cc1ccccc1)NC(=O)OCCO | >10 µM
Nc1nc(NC2CC2)c2ncn(/C=C3/C[C@H]3CO)c2n1 | 95 µM
Cc1cc(SC2=C(O)CC(CCc3ccc(O)cc3)(C3CC3)OC2=O)c(C(C)(C)C)cc1CO | >100 µM
Nc1ccn([C@H]2CC[C@@H](CO)O2)c(=O)n1 | 6 µM
[N-]=[N+]=N[C@@H]1[C@H](O)[C@@H](CO)O[C@H]1n1ccc(N)nc1=O | <1 µM
CO[C@H]1N([C@H]2C[C@H](F)[C@@H](CO)O2)C(=O)NC(=O)[C@]1(C)Br | 1.72 µM
CC(C)(C)C(=O)OCOP(=O)(COCCn1cnc2c(N)ncnc21)OCOC(=O)C(C)(C)C | 1.4 µM
Cc1cn([C@H]2C[C@H](N=[N+]=[N-])[C@@H](CN3C(=O)c4cc(Cl)c(Cl)cc4C3=O)O2)c(=O)[nH]c1=O | >200 µM
O=C(Nc1ccccc1C(=O)N[C@@H](Cc1ccccc1)C[C@H](O)[C@H](Cc1ccccc1)NC(=O)c1cccc(O)c1)OCc1ccccn1 | >0.3 µM
Nc1ccn([C@@H]2CO[C@H](CO)S2)c(=O)n1 | 103 µM
CC(C)(CO)OC(=O)N[C@@H](Cc1ccccc1)[C@H](O)CNC[C@@H](O)[C@H](Cc1ccccc1)NC(=O)OC(C)(C)CO | >10 µM
CC[C@H](C)[C@H](NC(=O)c1ccccc1SSc1ccccc1C(=O)N[C@H](C(=O)O)[C@@H](C)CC)C(=O)O | >120 µM
COC(=O)CNC(=O)CCc1ccc2c(c1)COP(=O)(OC[C@@H]1C=C[C@H](n3cc(C)c(=O)[nH]c3=O)O1)O2 | 220 µM
CCOP(=O)(CO[C@H]1C[C@@H](n2cnc3c(N)ncnc32)C(F)(F)C1)OCC | >100 µM
CC(C)(C)OC(=O)N[C@@H](Cc1ccccc1)[C@H](O)CNC[C@@H](O)[C@H](Cc1ccccc1)NC(=O)OC(C)(C)CN | >10 µM
Cc1cn([C@@H]2O[C@H](CO)C[C@@H]2F)c(=O)[nH]c1=O | >25 µg/mL
C=C1c2cccc(O)c2C(O)=C2C(=O)[C@]3(O)C(O)=C(C(N)=O)C(=O)[C@@H](N(C)C)[C@@H]3[C@@H](O)[C@H]12 | >10 µg/mL
Cc1cn([C@H]2C=C[C@@H](CO)O2)c(=O)[nH]c1=O | 213 µM
Nc1ccn([C@H]2CC[C@@H](CO)O2)c(=O)n1 | 8 µM
Cc1cn([C@@H]2O[C@H](CO[Si](C)(C)C(C)(C)C)[C@@]3(OS(=O)(=O)C=C3N)[C@H]2O[Si](C)(C)C(C)(C)C)c(=O)n(CC(=O)N[C@@H](CCC(=O)O)C(=O)O)c1=O | >250 µM
CC1=NN(C(=O)c2ccc(Cl)cc2)C(=O)/C1=C/c1ccc(O)cc1 | >15 µM
Nc1ncnc2c1ncn2[C@@H]1C[C@H](OCP(=O)(O)O)CC1(F)F | >100 µM
Cc1cn([C@@H]2O[C@H](CO)C[C@H]2F)c(=O)[nH]c1=O | >100 µM
Cc1cn([C@H]2C[C@H](N=[N+]=[N-])[C@@H](CN3C(=O)c4c(F)c(F)c(F)c(F)c4C3=O)O2)c(=O)[nH]c1=O | >200 µM
Cc1cn([C@H]2C=C[C@@H](COP3(=O)OCc4cccc(C(C)(C)C)c4O3)O2)c(=O)[nH]c1=O | 35 µM
Nc1nc(=O)n([C@@H]2CO[C@H](CO)S2)cc1F | >500 µM
CO[C@H]1N([C@H]2C[C@H](F)[C@@H](CO)O2)C(=O)NC(=O)[C@]1(C)I | 57.3 µM
Cc1cc(S(=O)(=O)Nc2n[nH]c(Nc3ccc(Cl)cc3)n2)c(S)cc1Cl | >200 µM
O=C(Nc1ccccc1C(=O)N[C@@H](Cc1ccccc1)C[C@H](O)[C@H](Cc1ccccc1)NC(=O)OCc1cscn1)OCc1ccccn1 | >0.6 µM
Cc1cn([C@H]2C=C[C@@H](CO)O2)c(=O)[nH]c1=O | 234 µM
COc1ccc(C2C(Cl)C(=O)N2NC(=O)c2ccccc2O)cc1OC | >50 µM
O=C(Nc1ccccc1C(=O)N[C@@H](Cc1ccccc1)C[C@H](O)[C@H](Cc1ccccc1)NC(=O)c1cscn1)OCc1ccccn1 | >3 µM
CC1=NN(C(=O)c2ccc(Cl)cc2)C(=O)/C1=C/c1cccc([N+](=O)[O-])c1 | >20 µM
Cc1cn([C@H]2C=C[C@@H](CO)O2)c(=O)[nH]c1=O | >10 µM
Nc1ccn([C@@H]2CC[C@H](CO)O2)c(=O)n1 | 58 µM
Cc1cc(S(=O)(=O)Nc2n[nH]c(Nc3ccc4ccccc4c3)n2)c(S)cc1Cl | >200 µM
C[C@]1(Br)C(=O)NC(=O)N([C@H]2C[C@H](F)[C@@H](CO)O2)[C@@H]1N=[N+]=[N-] | 100 µM
CC1=NN(c2nc(N)nc(NS(=O)(=O)c3cc(C)c(Cl)cc3S)n2)C(C)(C)C1 | >200 µM
Cc1cn([C@H]2C=C[C@@H](COP3(=O)OCc4cc(Br)ccc4O3)O2)c(=O)[nH]c1=O | 64 µM
CC(C)CC(NC(=O)c1ccccc1SSc1ccccc1C(=O)NC(CC(C)C)C(=O)O)C(=O)O | 130 µM
Cc1cn([C@H]2C[C@H](N=[N+]=[N-])[C@@H](CN3C(=S)c4ccccc4C3=S)O2)c(=O)[nH]c1=O | 19 µM
CC1=NN(C(=O)c2ccccc2O)C(=O)/C1=C/c1ccc(O)cc1 | 0.059 µM
Cc1cn([C@H]2C=C[C@@H](COP3(=O)OCc4cc(CCC(=O)NC(C)C(=O)O)ccc4O3)O2)c(=O)[nH]c1=O | 77 µM
Cc1cc(S(=O)(=O)Nc2n[nH]c(Nc3ccccc3)n2)c(SCC(=O)O)cc1Cl | >200 µM
Cc1ccccc1C(=O)N[C@@H](Cc1ccccc1)[C@@H](O)C[C@H](Cc1ccccc1)NC(=O)c1ccccc1NC(=O)OCc1ccccn1 | >0.5 µM
Nc1ccn([C@H]2C=C[C@@H](CO)O2)c(=O)n1 | 22 µM
Nc1nc2c(ncn2/C=C2/C[C@@H]2CO)c(=O)[nH]1 | 90 µM
CCN(CC)c1ccc(NC(=O)c2ccccc2SSc2ccccc2C(=O)Nc2ccc(N(CC)CC)cc2)cc1 | 20 µM

A second listing of 13 rows from above:

structure	result
Cc1cn([C@H]2C[C@H](N=[N+]=[N-])[C@@H](CN3C(=S)c4ccccc4C3=S)O2)c(=O)[nH]c1=O	19 µM
Cc1cn([C@@H]2O[C@H](CO[Si](C)(C)C(C)(C)C)C3(OS(=O)(=O)C=C3N)[C@H]2O[Si](C)(C)C(C)(C)C)c(=O)n(CC(=O)N[C@@H](C)C(=O)OCc2ccccc2)c1=O	≥250 µM
Nc1nc(NC2CC2)c2ncn(/C=C3/C[C@@H]3CO)c2n1	70 µM
Cc1cc(S(=O)(=O)Nc2n[nH]c(Nc3ccc4ccccc4c3)n2)c(S)cc1Cl	>200 µM
Cc1cn([C@H]2C[C@H](N=[N+]=[N-])[C@@H](CN3C(=O)c4c(F)c(F)c(F)c(F)c4C3=O)O2)c(=O)[nH]c1=O	>200 µM
Cc1cc(SC2=C(O)CC(CCc3ccc(N)cc3)(C(C)C)OC2=O)c(C(C)(C)C)cc1CO	>100 µM
CCOP(=O)(CO[C@H]1C[C@@H](n2cnc3c(N)ncnc32)C(F)(F)C1)OCC	>100 µM
S=C(S)N1CCOCC1	42 µM
CC(C)(C)OC(=O)N[C@@H](Cc1ccccc1)[C@H](O)CNC[C@@H](O)[C@H](Cc1ccccc1)NC(=O)OC(C)(C)CN	>10 µM
Cc1cn([C@@H]2O[C@H](CO)C[C@H]2F)c(=O)[nH]c1=O	>100 µM
C[C@H]1c2cccc(O)c2C(O)=C2C(=O)[C@]3(O)C(O)=C(C(N)=O)C(=O)[C@@H](N(C)C)[C@@H]3[C@@H](O)[C@@H]21	>3.3 µg/mL
CC(C)CC(NC(=O)c1ccccc1SSc1ccccc1C(=O)NC(CC(C)C)C(=O)O)C(=O)O	130 µM
CC(C)(C)OC(=O)N[C@@H](Cc1ccccc1)[C@H](O)CNC[C@@H](O)[C@H](Cc1ccccc1)NC(=O)OC(C)(C)CNC=O	>10 µM

Neighbouring rows are from separate reports.